Anti-infective test results gathered from many reports (values: NIAID ChemDB through PubChem).

All rows: target-level tests; organism: HIV-1; protein: Reverse transcriptase; endpoint: IC50

a–b is a range or a potency band.

compound | strain or isolate | mutations | read by | result
Cc1cc(C)cc(S(=O)(=O)c2c(C(=O)NNCCO)[nH]c3ccc(Cl)cc23)c1 | - | RT-K103N | nucleotide incorporation / radiometric | 1.04 µM
Cc1cccc(Cc2nc(OC3CCCCC3)[nH]c(=O)c2C)c1 | IIIB | - | nucleotide incorporation | 1.7 µM
CC(C)=CCOc1cc(NC(=S)c2ccoc2C)ccc1Cl | - | RT-L74V | - | 2 µM
Nc1ncnc2c1ncn2CCOCP(=O)(O)OP(=O)(O)OP(=O)(O)O | - | - | nucleotide incorporation / radiometric | 0.18 µM
CC(C)=CCN1c2cc(Cl)ccc2NC(=O)[C@@H]1Cc1ccccc1 | - | - | nucleotide incorporation | >10 µg/mL
Cc1cc(C)c(-n2nnnc2SCC(=O)Nc2ccc([N+](=O)[O-])cc2Cl)c(C)c1 | - | RT-K103N | - | 0.11 µM
C=C(C)[C@@H]1CC[C@]2(COC(C)=O)CC[C@]3(C)[C@H](CC[C@@H]4[C@@]5(C)CC[C@H](OC(C)=O)C(C)(C)[C@@H]5CC[C@]43C)[C@@H]12 | - | - | nucleotide incorporation | 1.3 µM
O=C(CC1(O)C(=O)Nc2ccc(Br)cc21)c1ccc(F)cc1 | - | - | RT activity / absorbance | 15.54 µM
Cc1cn([C@H]2CC[C@@H](COP(=O)(O)OP(=O)(O)OP(=O)(O)O)O2)c(=O)[nH]c1=O | - | RT-I135A | nucleotide incorporation / radiometric | 0.08 µM
CCN1c2ncc(CCOc3ccc4cc(C(=O)O)ccc4c3)cc2C(=O)N(C)c2cccnc21 | - | RT-V106A | nucleotide incorporation / radiometric | 0.1–1 µM
Fc1cccc(F)c1Cn1c(-c2c(F)cccc2F)nc2ccc(Cl)cc21 | - | - | - | <10 µM
CCN1c2ncc(CCOc3ccc(C(=O)O)c4ccccc34)cc2C(=O)N(C)c2ccc(Cl)nc21 | - | RT-Y188L | nucleotide incorporation / radiometric | 0.1–1 µM
CC(C)=CCC[C@@H](C)C1=CC[C@@]2(C)C3CC[C@H]4C(C)(C)[C@@H](O)CC[C@@]45C[C@@]35CC[C@]12C | - | - | nucleotide incorporation | 4.2 µM
COc1ccc(C(=O)CC2(O)C(=O)Nc3ccc(Cl)cc32)cc1OC | - | - | RT activity / absorbance | 73.08 µM
Cc1ccc(-n2nnnc2SCC(=O)Nc2ccccc2[N+](=O)[O-])c(Br)c1 | - | RT-K103N | - | 0.009 µM
Oc1ccccc1-c1c2nc(c(-c3ccccc3O)c3ccc([nH]3)c(-c3ccccc3O)c3nc(c(-c4ccccc4O)c4ccc1[nH]4)C=C3)C=C2 | - | - | RT activity | 5 µM
CCN1c2ncc(CCOc3ccc(C(=O)O)c4ccccc34)cc2C(=O)Nc2c(C)cc(Cl)nc21 | WT | - | nucleotide incorporation / radiometric | <0.1 µM
c1ccc(C2SCc3nc4ccccc4n32)cc1 | - | RT-L100I | - | >50 µM
COc1ccccc1C(=O)CC1(O)C(=O)Nc2ccc(Br)cc21 | - | - | RT activity / absorbance | 0.82 µM
COc1cccc2c1N(C(=O)OC(C)C)C(CSC)C(=S)N2 | - | - | nucleotide incorporation | 0.01–0.1 µg/mL
CCN1c2ncc(CCOc3ccc(CCC(=O)O)c4ccccc34)cc2C(=O)N(C)c2ccc(C)nc21 | - | RT-Y188L | nucleotide incorporation / radiometric | >1 µM
NS(=O)(=O)c1ccc(NC(=O)CSc2nnnn2-c2cc(Cl)ccc2Cl)c(Cl)c1 | - | - | - | 0.003 µM
CC(C)=CCN1c2cc(Cl)ccc2NC(=O)[C@@H]1C(C)C | - | - | nucleotide incorporation | 1–10 µg/mL
Cc1cccc2c1nc(C=O)n2Cc1c(F)cccc1F | - | - | - | >10 µM
C=C(C)[C@@H]1CC[C@]2(C)CC[C@]3(C)[C@H](CC[C@@H]4[C@@]5(C)CC[C@H](OC(C)=O)C(C)(C)[C@@H]5CC[C@]43C)[C@@H]12 | - | - | RT activity / nucleotide incorporation / fluorescence | >100 µM
Cc1cccc(C(=O)CC2(O)C(=O)Nc3ccccc32)c1 | - | - | RT activity / absorbance | 62.37 µM
Cc1cn([C@@H]2C[C@H](OP(=O)(O)OC[C@H]3O[C@H](n4cc(C)c(=O)[nH]c4=O)C[C@@H]3O)[C@@H](CO)O2)c(=O)[nH]c1=O | - | - | - | >100 µM
Nc1nc2c(ncn2[C@H]2CC[C@@H](COP(=O)(O)OP(=O)(O)OP(=O)(O)O)O2)c(=O)[nH]1 | - | RT-E138K | - | 0.022 µM
CC(C)=CCC[C@@H](C)C1CC[C@]2(C)C3=CC[C@H]4C(C)(C)[C@@H](O)CC[C@]4(C)C3CC[C@@]12C | - | - | nucleotide incorporation | 3.1 µM
CCN1c2ncc(CCOc3ccc(CC(N)=O)c4ccccc34)cc2C(=O)N(C)c2cccnc21 | WT | - | nucleotide incorporation / radiometric | <0.1 µM
Fc1cccc(F)c1Cn1c(-c2c(F)cccc2F)nc2cc(Cl)ccc21 | - | - | - | ~10 µM
O=C1c2ccccc2C2(c3ccccc3)SCCN12 | IIIB | - | ELISA | 1.41 µM
Cc1cc(C)cc(Cc2nc(OC3CCCC3)[nH]c(=O)c2C)c1 | IIIB | - | nucleotide incorporation | >10 µM
CSC[C@H]1C(=S)Nc2ccc(Cl)cc2N1Cc1ccccn1 | - | - | nucleotide incorporation | 0.01–0.1 µg/mL
COc1nc(Cc2cccc(C)c2)cc(=O)[nH]1 | IIIB | - | nucleotide incorporation | >10 µM
CCOC1(c2ccccc2)c2cc(Cl)ccc2NC(=O)N1C | - | - | - | 0.056 µM
C=C(C)[C@@H]1CC[C@]2(C)CC[C@]3(C)[C@H](CC[C@@H]4[C@@]5(C)CC[C@H](OC(C)=O)C(C)(C)[C@@H]5CC[C@]43C)[C@@H]12 | - | - | nucleotide incorporation | 6.4 µM
C=C(C)[C@@H]1CC[C@]2(C)CCC3(C)[C@H](CC[C@@H]4[C@@]5(C)CC[C@H](O)C(C)(C)[C@@H]5CC[C@]43C)[C@@H]12 | - | - | RT activity / nucleotide incorporation / fluorescence | >100 µM
Cc1n[nH]c(=O)n1Cc1ccc(Br)c(Oc2cc(Cl)cc(C#N)c2)c1F | K103N/Y181C | NNRTI-resistant (RT K103N/Y181C) | scintillation proximity / radiometric | 0.012 µM
N#Cc1ccc(NC(=S)N[C@@H]2[C@@H]3COc4c(F)ccc(F)c4[C@@H]32)nc1 | - | L100I | scintillation proximity / radiometric | 0.0052 µM
N#Cc1cc(Cl)cc(Oc2c(Br)ccc(Cn3[nH]c(=O)[nH]c3=O)c2F)c1 | - | Wild type | scintillation proximity / radiometric | 0.007 µM
O=C(CC1(O)C(=O)Nc2ccccc21)c1ccccc1 | - | - | RT activity / absorbance | >100 µM
CN1C(=O)NC(=O)C1Cc1ccc(Br)c(Oc2cc(Cl)cc(C#N)c2)c1F | K103N/Y181C | NNRTI-resistant (RT K103N/Y181C) | scintillation proximity / radiometric | 0.007 µM
CCN1c2ncc(CCOc3ccc(CC(C)C(=O)O)c4ccccc34)cc2C(=O)Nc2c(C)cc(Cl)nc21 | - | RT-V106A | nucleotide incorporation / radiometric | 0.1–1 µM
Cc1cc(C)c(-n2nnnc2SCC(=O)Nc2ccc(C(N)=O)cc2C)c(C)c1 | - | RT-K103N | - | 0.055 µM
Cc1cc(C)cc(Cc2nc(OC3CCCCC3)[nH]c(=O)c2C)c1 | IIIB | - | nucleotide incorporation | >10 µM
O=C(CC1(O)C(=O)Nc2ccc(Cl)cc21)c1cccc([N+](=O)[O-])c1 | - | - | RT activity / absorbance | 58.51 µM
Cc1cn([C@@H]2O[C@H](CO[Si](C)(C)C(C)(C)C)C3(OS(=O)(=O)C=C3N)[C@H]2O[Si](C)(C)C(C)(C)C)c(=O)n(C)c1=O | - | - | nucleotide incorporation | 4.09 µM
Oc1ccc(-c2c3nc(c(-c4ccc(O)cc4)c4ccc([nH]4)c(-c4ccc(O)cc4)c4nc(c(-c5ccc(O)cc5)c5ccc2[nH]5)C=C4)C=C3)cc1 | - | - | RT activity | 3 µM
O=C(CSc1nnnn1-c1ccc(Cl)c(Cl)c1)Nc1ccccc1[N+](=O)[O-] | - | RT-K103N | - | 0.46 µM
C=C(CCC=C(C)C)C1CC[C@]2(C)C1CC[C@@H]1[C@@]3(C)CC[C@H](O)C(C)(C)[C@@H]3CC[C@]12C | - | - | nucleotide incorporation | 3.5 µM
Cc1cc(S(N)(=O)=O)ccc1NC(=O)COc1ccc(Cl)cc1C(=O)c1cc(Cl)cc(C#N)c1 | - | RT-E138K | fluorescence | 0.0042 µM
C=C(C)[C@@H]1CC[C@]2(C)CC[C@]3(C)[C@H](CC[C@@H]4[C@@]5(C)CCC(=O)C(C)(C)[C@@H]5CC[C@]43C)[C@@H]12 | - | - | nucleotide incorporation | 2.1 µM
CC(C)Nc1cccnc1N1CCN(C(=O)c2cc3ccccc3[nH]2)CC1 | MN | - | nucleotide incorporation | 1.4 µM
COc1ccc(C(=O)O)c(O)c1 | - | - | RT activity / nucleotide incorporation / fluorescence | >100 µM
COc1ccccc1C(=O)CC1(O)C(=O)Nc2ccc(Cl)cc21 | - | - | RT activity / absorbance | 0.27 µM
CNc1ccc(Cl)cc1S(=O)(=O)c1ccccc1[N+](=O)[O-] | - | RT-K103N | - | >100 µM
Cc1cc(C)cc([C@]23SCCN2C(=O)c2ccccc23)c1 | IIIB | RT-K103N | ELISA | 10.6 µM
C=C(C)OC(=O)N1c2cc(Cl)ccc2NC(=O)[C@@H]1CSC | - | - | nucleotide incorporation | 0.01–0.1 µg/mL
Cc1cccc2c1nc(-c1c(F)cccc1F)n2Cc1cccnc1 | - | - | - | <10 µM
COc1ccc2c(c1)N(C(=O)OC(C)C)[C@@H](CCSC)C(=S)N2 | - | - | nucleotide incorporation | 0.1–1 µg/mL
CCN1c2ncc(CCOc3ccc(/C=C(\C)C(=O)O)c4ccccc34)cc2C(=O)Nc2c(C)cc(F)nc21 | - | RT-K103N Y181C | nucleotide incorporation / radiometric | 0.1–1 µM
Cc1cccc2c1nc(-c1c(F)cccc1F)n2Cc1c(F)c(F)c(F)c(F)c1F | - | - | - | <10 µM
N#Cc1cc(Cl)cc(Oc2c(Br)ccc(Cn3c(=O)[nH]c4cnccc43)c2F)c1 | K103N/Y181C | NNRTI-resistant (RT K103N/Y181C) | scintillation proximity / radiometric | 0.004 µM
COc1ccccc1C(=O)CC1(O)C(=O)Nc2ccccc21 | - | - | RT activity / absorbance | 14.18 µM
N#Cc1cc(Cl)cc(Oc2c(Br)ccc(Cn3c(=O)[nH]c4ncccc43)c2F)c1 | K103N/Y181C | NNRTI-resistant (RT K103N/Y181C) | scintillation proximity / radiometric | 0.005 µM
COc1ccc2c(c1)N(C(=O)OC(C)C)[C@@H](CSC)C(=S)N2 | - | RT-V106A | scintillation proximity / radiometric | 0.58 µM
CC1(C)c2ccc3c(c2CC[C@H]1O)CC[C@@]1(C)[C@@H]2C[C@](C)(CO)CC[C@]2(C)CC[C@]31C | - | - | nucleotide incorporation | 4.3 µM
N#Cc1cc(Cl)cc(Oc2c(Br)ccc(Cn3c(=O)[nH]c4ccccc43)c2F)c1 | K103N/Y181C | NNRTI-resistant (RT K103N/Y181C) | scintillation proximity / radiometric | 0.008 µM

Repeating the first 10 entries:

compound | strain or isolate | mutations | read by | result
Cc1cc(C)cc(S(=O)(=O)c2c(C(=O)NNCCO)[nH]c3ccc(Cl)cc23)c1 | - | RT-K103N | nucleotide incorporation / radiometric | 1.04 µM
Cc1cccc(Cc2nc(OC3CCCCC3)[nH]c(=O)c2C)c1 | IIIB | - | nucleotide incorporation | 1.7 µM
CC(C)=CCOc1cc(NC(=S)c2ccoc2C)ccc1Cl | - | RT-L74V | - | 2 µM
Nc1ncnc2c1ncn2CCOCP(=O)(O)OP(=O)(O)OP(=O)(O)O | - | - | nucleotide incorporation / radiometric | 0.18 µM
CC(C)=CCN1c2cc(Cl)ccc2NC(=O)[C@@H]1Cc1ccccc1 | - | - | nucleotide incorporation | >10 µg/mL
Cc1cc(C)c(-n2nnnc2SCC(=O)Nc2ccc([N+](=O)[O-])cc2Cl)c(C)c1 | - | RT-K103N | - | 0.11 µM
C=C(C)[C@@H]1CC[C@]2(COC(C)=O)CC[C@]3(C)[C@H](CC[C@@H]4[C@@]5(C)CC[C@H](OC(C)=O)C(C)(C)[C@@H]5CC[C@]43C)[C@@H]12 | - | - | nucleotide incorporation | 1.3 µM
O=C(CC1(O)C(=O)Nc2ccc(Br)cc21)c1ccc(F)cc1 | - | - | RT activity / absorbance | 15.54 µM
Cc1cn([C@H]2CC[C@@H](COP(=O)(O)OP(=O)(O)OP(=O)(O)O)O2)c(=O)[nH]c1=O | - | RT-I135A | nucleotide incorporation / radiometric | 0.08 µM
CCN1c2ncc(CCOc3ccc4cc(C(=O)O)ccc4c3)cc2C(=O)N(C)c2cccnc21 | - | RT-V106A | nucleotide incorporation / radiometric | 0.1–1 µM

Rows are shuffled and stem from different studies. Blank or dashed fields: not listed here. ICn: concentration for n% inhibition.